Laboratory results taken from patent publication US11613546B2, “Substituted pyridotriazine compounds and uses thereof” (Gilead Sciences, Inc., priority 2021, dated 2023).

Test system: pLai RLuc reporter virus
Assay: HIV MT-4 serum shift antiviral reporter assay
Assay type: cell-based
Details: EC50 (HS/CCM)/EC50 (CCM) fold shift, measure of protein binding
Protocol: To quantify the amount of protein binding to human serum, compounds were serially diluted (1:3) in DMSO and acoustically transferred onto 384-well assay plates via a Labcyte ECHO robot. Each plate contained up to 8 test compounds, including negative and positive controls, (DMSO, 5 μM AZT respectively). Assay plates were prepared in duplicate, and tested in either CCM (cell culture media) or HS/CCM (human serum/cell culture media). MT-4 cells were first pre-infected with pLai RLuc reporter virus for 2 h at 37° C., then further diluted in either CCM (RPMI media, 10% FBS, 1% P/S) or HS/CCM (RPMI media, 10% FBS, 50% HS, 1% P/S), and subsequently added to each plate using a Biotek Micro Flow dispenser. After a 72-h incubation in a humidified and temperature controlled incubator (37° C.), Renilla Glo (Promega) was added to all assay plates and chemiluminescence read using an Envision plate-reader. EC50 values were defined as the compound concentration that causes a 50% decrease in luminescence signal, and were calculated using a sigmoidal dose-response model to generate curve fits. To determine the amount of protein binding, EC50 fold shifts (or EC50 shifts) were calculated by dividing EC50 (HS/CCM)/EC50 (CCM).

SMILES | RLUC Shift
C[C@@H]1C[C@@H](F)[C@@H](F)CN2CN1n1cc(C(=O)NCc3ccc(F)cc3F)c(=O)c(O)c1C2=O (single isomer, unassigned) [Example C38] | 14
O=C(NCc1c(F)cc(F)cc1F)c1cn2c(c(O)c1=O)C(=O)N1Cc3cc(F)ccc3CN2C1 [Example C1, (6R)-10-fluoro-1-hydroxy-2,14-dioxo-N-(2,4,6-trifluorobenzyl)-2,7,12,14-tetrahydro-6,13-methanobenzo[g]pyrido[1,2-b][1,2,5]triazonine-3-carboxamide] | 9
O=C(NCc1c(F)cc(F)cc1F)c1cn2c(c(O)c1=O)C(=O)N1Cc3ccc(F)cc3CN2C1 [Example C2, (6R)-9-fluoro-1-hydroxy-2,14-dioxo-N-(2,4,6-trifluorobenzyl)-2,7,12,14-tetrahydro-6,13-methanobenzo[g]pyrido[1,2-b][1,2,5]triazonine-3-carboxamide] | 17
O=C(NCc1c(F)cc(F)cc1F)c1cn2c(c(O)c1=O)C(=O)N1Cc3cc(F)ccc3CN2C1 [Example C3, (6S)-10-fluoro-1-hydroxy-2,14-dioxo-N-(2,4,6-trifluorobenzyl)-2,7,12,14-tetrahydro-6,13-methanobenzo[g]pyrido[1,2-b][1,2,5]triazonine-3-carboxamide] | 7
O=C(NCc1c(F)cc(F)cc1F)c1cn2c(c(O)c1=O)C(=O)N1Cc3ccc(F)cc3CN2C1 [Example C4, (6S)-9-fluoro-1-hydroxy-2,14-dioxo-N-(2,4,6-trifluorobenzyl)-2,7,12,14-tetrahydro-6,13-methanobenzo[g]pyrido[1,2-b][1,2,5]triazonine-3-carboxamide] | 11
C[C@H]1C=CCN2CN1C(=O)c1c(O)c(=O)c(C(=O)NCc3c(F)cc(F)cc3F)cn12 [Example C5, (10S)-6-hydroxy-10-methyl-5,8-dioxo-N-[(2,4,6-trifluorophenyl)methyl]-1,2,9-triazatricyclo[7.4.1.02,7]tetradeca-3,6,11-triene-4-carboxamide] | 96
O=C(NCc1c(F)cc(F)cc1F)c1cn2c(c(O)c1=O)C(=O)N1CCCCN2C1Cc1ccccc1 (stereo not shown) [Example C6, 13-benzyl-8-hydroxy-7,9-dioxo-N-(2,4,6-trifluorobenzyl)-2,3,4,5,7,9-hexahydro-1,6-methanopyrido[1,2-b][1,2,5]triazonine-10-carboxamide] | 7
C[C@@H]1C/C=C\[C@H](C)N2CN1n1cc(C(=O)NCc3c(F)cc(F)cc3F)c(=O)c(O)c1C2=O [Example C7, (1S,2R,6S,Z)-9-hydroxy-2,6-dimethyl-8,10-dioxo-N-(2,4,6-trifluorobenzyl)-3,6,8,10-tetrahydro-2H-1,7-methanopyrido[1,2-b][1,2,5]triazecine-11-carboxamide] | 485
C[C@@H]1CCC[C@H](C)N2CN1n1cc(C(=O)NCc3c(F)cc(F)cc3F)c(=O)c(O)c1C2=O [Example C8, (1S,2R,6S)-9-hydroxy-2,6-dimethyl-8,10-dioxo-N-(2,4,6-trifluorobenzyl)-3,4,5,6,8,10-hexahydro-2H-1,7-methanopyrido[1,2-b][1,2,5]triazecine-11-carboxamide] | 30
C[C@@H]1C/C=C\CN2CN1n1cc(C(=O)NCc3ccc(F)cc3F)c(=O)c(O)c1C2=O [Example C10, (1R,2R,Z)—N-(2,4-difluorobenzyl)-9-hydroxy-2-methyl-8,10-dioxo-3,6,8,10-tetrahydro-2H-1,7-methanopyrido[1,2-b][1,2,5]triazecine-11-carboxamide] | 854
C[C@@H]1C/C=C\CN2CN1n1cc(C(=O)NCc3ccc(F)cc3F)c(=O)c(O)c1C2=O [Example C11, (1S,2R,Z)—N-(2,4-difluorobenzyl)-9-hydroxy-2-methyl-8,10-dioxo-3,6,8,10-tetrahydro-2H-1,7-methanopyrido[1,2-b][1,2,5]triazecine-11-carboxamide] | 27
C[C@@H]1C/C=C\[C@H](C)N2CN1n1cc(C(=O)NCc3c(F)cc(F)cc3F)c(=O)c(O)c1C2=O [Example C12, (1R,2S,6R,Z)-9-hydroxy-2,6-dimethyl-8,10-dioxo-N-(2,4,6-trifluorobenzyl)-3,6,8,10-tetrahydro-2H-1,7-methanopyrido[1,2-b][1,2,5]triazecine-11-carboxamide] | 356
C[C@@H]1CCCCN2CN1n1cc(C(=O)NCc3ccc(F)cc3F)c(=O)c(O)c1C2=O [Example C13, (1S,2R)—N-(2,4-difluorobenzyl)-9-hydroxy-2-methyl-8,10-dioxo-3,4,5,6,8,10-hexahydro-2H-1,7-methanopyrido[1,2-b][1,2,5]triazecine-11-carboxamide] | 16
C[C@@H]1CCC[C@H](C)N2CN1n1cc(C(=O)NCc3c(F)cc(F)cc3F)c(=O)c(O)c1C2=O [Example C14, (1R,2S,6R)-9-hydroxy-2,6-dimethyl-8,10-dioxo-N-(2,4,6-trifluorobenzyl)-3,4,5,6,8,10-hexahydro-2H-1,7-methanopyrido[1,2-b][1,2,5]triazecine-11-carboxamide] | 44
C[C@@H]1CCCCN2CN1n1cc(C(=O)NCc3c(F)cc(F)cc3F)c(=O)c(O)c1C2=O [Example C17, (1S,2R)-9-hydroxy-2-methyl-8,10-dioxo-N-(2,4,6-trifluorobenzyl)-3,4,5,6,8,10-hexahydro-2H-1,7-methanopyrido[1,2-b][1,2,5]triazecine-11-carboxamide] | 44
C[C@H]1/C=C\C[C@H](C)N2CN1C(=O)c1c(O)c(=O)c(C(=O)NCc3c(F)cc(F)cc3F)cn12 [Example C19, (1R,2S,6S,Z)-9-hydroxy-2,6-dimethyl-8,10-dioxo-N-(2,4,6-trifluorobenzyl)-3,6,8,10-tetrahydro-2H-1,7-methanopyrido[1,2-b][1,2,5]triazecine-11-carboxamide] | 148
C[C@@H]1CCC[C@H](C)N2CN1n1cc(C(=O)NCc3c(F)cc(F)cc3F)c(=O)c(O)c1C2=O [Example C21, (1R,2S,6S)-9-hydroxy-2,6-dimethyl-8,10-dioxo-N-(2,4,6-trifluorobenzyl)-3,4,5,6,8,10-hexahydro-2H-1,7-methanopyrido[1,2-b][1,2,5]triazecine-11-carboxamide] | 425
C[C@H]1CCC[C@H](C)N2CN1C(=O)c1c(O)c(=O)c(C(=O)NCc3c(F)cc(F)cc3F)cn12 [Example C23, (1S,2S,6S)-9-hydroxy-2,6-dimethyl-8,10-dioxo-N-(2,4,6-trifluorobenzyl)-3,4,5,6,8,10-hexahydro-2H-1,7-methanopyrido[1,2-b][1,2,5]triazecine-11-carboxamide] | 51
C[C@@H]1C=C[C@H](C)N2CN1n1cc(C(=O)NCc3c(F)cc(F)cc3F)c(=O)c(O)c1C2=O [Example C24, (1S,2R,5S)-8-hydroxy-2,5-dimethyl-7,9-dioxo-N-(2,4,6-trifluorobenzyl)-2,5,7,9-tetrahydro-1,6-methanopyrido[1,2-b][1,2,5]triazonine-10-carboxamide] | 747
C[C@H]1C=C[C@H](C)N2CN1C(=O)c1c(O)c(=O)c(C(=O)NCc3c(F)cc(F)cc3F)cn12 [Example C25, (1S,2S,5S)-8-hydroxy-2,5-dimethyl-7,9-dioxo-N-(2,4,6-trifluorobenzyl)-2,5,7,9-tetrahydro-1,6-methanopyrido[1,2-b][1,2,5]triazonine-10-carboxamide] | 147
C[C@H]1CC[C@H](C)N2CN1C(=O)c1c(O)c(=O)c(C(=O)NCc3c(F)cc(F)cc3F)cn12 [Example C27, (1S,2R,5S)-8-hydroxy-2,5-dimethyl-7,9-dioxo-N-(2,4,6-trifluorobenzyl)-2,3,4,5,7,9-hexahydro-1,6-methanopyrido[1,2-b][1,2,5]triazonine-10-carboxamide] | 1072
C[C@@H]1C=C[C@H](C)N2CN1n1cc(C(=O)NCc3ccc(F)cc3F)c(=O)c(O)c1C2=O [Example C29, (1S,2R,5S)—N-(2,4-difluorobenzyl)-8-hydroxy-2,5-dimethyl-7,9-dioxo-2,5,7,9-tetrahydro-1,6-methanopyrido[1,2-b][1,2,5]triazonine-10-carboxamide] | 543
C[C@H]1C=C[C@H](C)N2CN1C(=O)c1c(O)c(=O)c(C(=O)NCc3ccc(F)cc3F)cn12 [Example C30, (1S,2S,5S)-8-hydroxy-2,5-dimethyl-7,9-dioxo-N-(2,4-difluorobenzyl)-2,5,7,9-tetrahydro-1,6-methanopyrido[1,2-b][1,2,5]triazonine-10-carboxamide] | 89
C[C@H]1CC[C@H](C)N2CN1C(=O)c1c(O)c(=O)c(C(=O)NCc3ccc(F)cc3F)cn12 [Example C31, (1S,2S,5S)—N-(2,4-difluorobenzyl)-8-hydroxy-2,5-dimethyl-7,9-dioxo-2,3,4,5,7,9-hexahydro-1,6-methanopyrido[1,2-b][1,2,5]triazonine-10-carboxamide] | 798
CO[C@@H]1[C@H](OC)[C@@H](C)N2CN(C(=O)c3c(O)c(=O)c(C(=O)NCc4c(F)cc(F)cc4F)cn32)[C@H]1C [Example C32, (1S,2R,3R,4S,5S)-8-hydroxy-3,4-dimethoxy-2,5-dimethyl-7,9-dioxo-N-(2,4,6-trifluorobenzyl)-2,3,4,5,7,9-hexahydro-1,6-methanopyrido[1,2-b][1,2,5]triazonine-10-carboxamide] | 1.9
